This series concerns the target GST-PthA4 (UniProt A0AAI8ETU3). The series can be described thus: EMSA. The following applies: partial shift at 6, 12, 24 ug protein, 25 ng DNA; recombinant protein; protein details: GST (N-terminal, pET41a(+)); label: Cy5.

The exact form of at least one protein or probe is not confirmed.

Regarding “TCCCACTTTAATATATAAA (double strand) [PthA4 EBE of Cs9g12620 promoter (19 bp)]”, the binding result is given as “binds”.

For the origin of these results see publication PMC11321762.
